Pooled drug test results. Numbers come from NIAID ChemDB, via PubChem.

Common to all: whole-cell or culture tests

Neighbouring rows are from separate reports. An empty or dashed field is not shown. ECn: concentration that inhibits the pathogen or its effect by n%. Zones are inhibition diameters on agar. Percent inhibition refers to the dose given; in toxicity tests it is the harm to the cells. MIC50, MIC90 and the like: level of inhibition, or share of isolates inhibited.

SMILES	agent	strain or isolate	method	setting	read-out	dose	value
C[C@H]1[C@H](O)[C@@H](C)/C=C/C=C/C=C/C=C/C=C/C=C/C=C/[C@H](O[C@@H]2O[C@H](C)[C@@H](O)[C@H](N)[C@@H]2O)C[C@@H]2O[C@](O)(C[C@@H](O)C[C@@H](O)CC[C@H](O)[C@@H](O)C[C@@H](O)CC(=O)O[C@H]1C)C[C@H](O)[C@H]2C(=O)O	Candida dubliniensis	ATCC MAY 646	broth dilution / absorbance		MIC99		0.39 µM
Cc1cc(=O)oc2cc(OCC(O)Cn3nnc4ccccc43)cc(OCC(O)Cn3nnc4ccccc43)c12	Candida mycoderma				MIC		16 µg/mL
COc1ccc(C=NNC(=O)CC(C)n2c3c(=O)c4ccccc4c(=O)c=3oc3ccccc32)cc1	Candida tenuis	VKM Y-70			MIC		125 µg/mL
C[C@@H](c1ncncc1F)[C@](O)(Cn1cncn1)c1ccc(F)cc1F	Candida glabrata	8661	broth dilution		MIC		1 µg/mL
COc1cc(C2Oc3ccc4c(=O)c5c(O)cc(O)cc5oc4c3OC2CO)cc(OC)c1O	Candida spp.		broth dilution		MIC100		>64 µg/mL
Cc1cc(=O)oc2cc(OCC(O)Cn3cncn3)cc(OCC(O)Cn3cncn3)c12	Candida mycoderma				MIC		4 µg/mL
Cc1ccc(N2C(=O)C[C@@H](C)C2=O)cc1	Candida lusitaniae	CCC 134-2000	broth dilution / turbidity		MIC		62.5 µg/mL
Nc1[nH]c(=O)ncc1F	Candida albicans	10 isolates	broth dilution	pH 4	EC90		>64 µg/mL
Fc1cc(F)c(B2Oc3ccccc3O2)c(F)c1	Candida tenuis		turbidity		MFC		250 µg/mL
COc1c(O)ccc2c(=O)c3c(O)cc4c(c3oc12)C(C)(C)C(C)O4	Candida spp.		broth dilution		MIC100		>64 µg/mL
OB(O)c1c(F)cc(F)cc1F	Candida tenuis		turbidity		MIC		250 µg/mL
OC(CN1CCN(c2ccc(OCc3ccncc3)cc2)CC1)(Cn1cncn1)c1ccc(F)cc1F	Candida albicans	305271			MIC80		1 µg/mL
CCOc1ccc2nc3cc(N=C4NC(=O)/C(=C\c5ccc([N+](=O)[O-])o5)S4)ccc3c(N)c2c1	Candida kefyr	ATCC 8614	broth dilution		MIC		16.5 µg/mL
OC(Cn1cncn1)(Cn1cncn1)c1ccc(F)cc1F	Candida tropicalis	65 isolates		48 h	MIC50		3.2 µg/mL
C[C@H]1[C@H](O)[C@@H](C)/C=C/C=C/C=C/C=C/C=C/C=C/C=C/[C@H](O[C@@H]2O[C@H](C)[C@@H](O)[C@H](N)[C@@H]2O)C[C@@H]2O[C@](O)(C[C@@H](O)C[C@@H](O)CC[C@H](O)[C@@H](O)C[C@@H](O)CC(=O)O[C@H]1C)C[C@H](O)[C@H]2C(=O)O	Candida guilliermondii	34134	broth dilution		MIC		0.008 µg/mL
O=C(NN=Cc1ccc([N+](=O)[O-])cc1)c1snnc1C(F)(F)F	Candida rugosa	NCIM 3462	agar diffusion / agar		zone	150 µg/mL	0 mm
C[n+]1ccn(COCCCCCCOCn2cc[n+](C)c2)c1	Candida krusei	ATCC 6258	agar diffusion		MIC100		26 µM
COC(=O)c1ccc(C[C@H](C(=O)OC)[C@@H](O)C(=O)OC)cc1	Candida dubliniensis	CBS 7987			MIC		2 µg/mL
CCCCCCCCCCCCCCCCn1cc[n+](COCCOC[n+]2ccn(CCCCCCCCCCCCCCCC)c2)c1	Candida krusei	ATCC 6258	agar diffusion		MIC100		27 µM
O=c1c2cc(O)ccc2oc2cccc(O)c12	Candida spp.		broth dilution		MIC		>64 µg/mL
Cc1ccc(C2c3ccc4ccccc4c3Oc3nc(-c4cc5ccccc5oc4=O)[nH]c(=O)c32)cc1	Candida rugosa		agar diffusion / agar		zone	100 µg/mL	11 mm
CC1CC(=O)N(c2ccc(Cl)cc2)C1=O	Candida lusitaniae	CCC 134-2000	broth dilution / turbidity		MIC		250 µg/mL
CCCCn1cc[n+](COCCCCOC[n+]2ccn(CCCC)c2)c1	Candida krusei	ATCC 6258	agar diffusion		MIC100		2871 µM
C[C@@H]1CC(=O)N(c2ccccc2)C1=O	Candida lusitaniae	CCC 134-2000	broth dilution / turbidity		MIC		62.5 µg/mL
CC[C@@H]([C@H](C)O)n1ncn(-c2ccc(N3CCN(c4ccc(OC[C@@H]5CO[C@@](Cn6cncn6)(c6ccc(F)cc6F)C5)cc4)CC3)cc2)c1=O	Candida glabrata	40 isolates	broth dilution	pH 5	EC90		>16 µg/mL
CC(=O)CC(C)n1c2c(=O)c3ccccc3c(=O)c=2oc2ccccc21	Candida tenuis	VKM Y-70			MIC		250 µg/mL
CCC(C)n1ncn(-c2ccc(N3CCN(c4ccc(OC[C@H]5CO[C@](Cn6cncn6)(c6ccc(Cl)cc6Cl)O5)cc4)CC3)cc2)c1=O	Candida spp.	fluconazole-sensitive	broth dilution		MIC50		0.13 µg/mL
C[C@@H]1CC(=O)N(c2ccc(Br)cc2)C1=O	Candida lusitaniae	CCC 134-2000	broth dilution / turbidity		MIC		62.5 µg/mL
C[C@H]1[C@H](O)[C@@H](C)/C=C/C=C/C=C/C=C/C=C/C=C/C=C/[C@H](O[C@@H]2O[C@H](C)[C@@H](O)[C@H](N)[C@@H]2O)C[C@@H]2O[C@](O)(C[C@@H](O)C[C@@H](O)CC[C@H](O)[C@@H](O)C[C@@H](O)CC(=O)O[C@H]1C)C[C@H](O)[C@H]2C(=O)O	Candida guilliermondii		broth dilution		MFC		12.5 µg/mL
CCCCCCCCCCCCCCCC(=O)NC(CCCCN)C(=O)NC(CCCCN)C(N)=O	Candida guilliermondii	195	broth dilution		MIC		4 µg/mL
O=C(NN=Cc1ccc(Cl)cc1)c1snnc1C(F)(F)F	Candida rugosa	NCIM 3462	agar diffusion / agar		zone	150 µg/mL	0 mm
CCOC(=O)/C=C(/C)n1c2c(=O)c3ccccc3c(=O)c=2oc2ccc(Cl)cc21	Candida tenuis	VKM Y-70			MIC		125 µg/mL
CC(=NNC(=O)c1snnc1C(F)(F)F)c1ccc([N+](=O)[O-])cc1	Candida rugosa	NCIM 3462	agar diffusion / agar		zone	100 µg/mL	0 mm
COc1ccc(C2c3ccc4ccccc4c3Oc3nc(-c4cc5ccccc5oc4=O)[nH]c(=O)c32)cc1	Candida rugosa		agar diffusion / agar		zone	100 µg/mL	16 mm
CCOC(=O)CC(C)n1c2c(=O)c3ccccc3c(=O)c=2oc2ccccc21	Candida tenuis	VKM Y-70			MIC		250 µg/mL
C[C@H]1[C@H](O)[C@@H](C)/C=C/C=C/C=C/C=C/C=C/C=C/C=C/[C@H](O[C@@H]2O[C@H](C)[C@@H](O)[C@H](N)[C@@H]2O)C[C@@H]2O[C@](O)(C[C@@H](O)C[C@@H](O)CC[C@H](O)[C@@H](O)C[C@@H](O)CC(=O)O[C@H]1C)C[C@H](O)[C@H]2C(=O)O	Candida lusitaniae	UTHSC 11-537	broth dilution		MIC		1 µg/mL
CN(C)c1ccc(C=NNC(=O)c2snnc2C(F)(F)F)cc1	Candida rugosa	NCIM 3462	agar diffusion / agar		zone	150 µg/mL	0 mm
CC(C)C[C@H](N)C(=O)O	Candida dubliniensis	EO 323	broth dilution		MFC100		>72000 µg/mL
CC1(C)O[C@H]2[C@H](O)[C@@H](N=[N+]=[N-])C=C(c3ccc(C=O)cc3)[C@H]2O1	Candida tropicalis	C 131	broth dilution / turbidity		inhibition	15.6 µg/mL	0%
O=C1C2=C(OC(CI)C2)C(=O)c2ccccc21	Candida tropicalis	Clinical isolate	broth dilution		MIC		40.32 µg/mL
O=c1[nH]c(-c2cc3ccccc3oc2=O)nc2c1C(c1ccccc1Cl)c1ccc3ccccc3c1O2	Candida rugosa		agar diffusion / agar		zone	100 µg/mL	11 mm
CC(CC(=O)NN=Cc1cccs1)n1c2c(=O)c3ccccc3c(=O)c=2oc2ccccc21	Candida tenuis	VKM Y-70			MIC		3.9 µg/mL
CN(C)c1ccc(C2c3ccc4ccccc4c3Oc3nc(-c4cc5ccccc5oc4=O)[nH]c(=O)c32)cc1	Candida rugosa		agar diffusion / agar		zone	100 µg/mL	12 mm
CC(C)(O)c1cn(-c2ccc3ccccc3c2)nn1	Candida albicans	URM 4606	broth dilution		inhibition	2048 µg/mL	0%
Cc1ccc(/C=N/Nc2ccnc3cc(Cl)ccc23)cc1	Candida lipolytica				MFC		40 µg/mL
CCC(C)n1ncn(-c2ccc(N3CCN(c4ccc(OC[C@H]5CO[C@](Cn6cncn6)(c6ccc(Cl)cc6Cl)O5)cc4)CC3)cc2)c1=O	Candida glabrata	40 isolates	broth dilution	pH 4	EC90		>16 µg/mL
CC(C)CC(O)C(=O)O	Candida dubliniensis	T-98 QC2000	broth dilution / visual reading		MFC100		36000 µg/mL
Clc1ccccc1C(c1ccccc1)(c1ccccc1)n1ccnc1	Candida glabrata	40 isolates	broth dilution	pH 7	EC90		2 µg/mL
C=CCc1ccc(OC)c(OC)c1	Candida tropicalis	3240	turbidity		MIC90		350 µg/mL
CCCCCOc1ccc(-c2cc(-c3ccc(C(=O)N[C@H]4C[C@@H](O)[C@@H](O)NC(=O)[C@@H]5[C@@H](O)[C@@H](C)CN5C(=O)[C@H]([C@H](O)CC(N)=O)NC(=O)[C@H]([C@H](O)[C@@H](O)c5ccc(O)c(OS(=O)(=O)O)c5)NC(=O)[C@@H]5C[C@@H](O)CN5C(=O)[C@H]([C@@H](C)O)NC4=O)cc3)no2)cc1	Candida spp.	fluconazole-sensitive	broth dilution		MIC50		0.016 µg/mL
Nc1scc2c1c(=O)oc1ccc3ccccc3c12	Candida lusitaniae	ATCC 200950	broth dilution		MIC		8 µg/mL
O=c1c(N2CCOCC2)c(N2CCN(S(=O)(=O)Cc3ccccc3)CC2)cnn1-c1ccccc1	Candida dubliniensis	C345	broth dilution		MIC		50 µg/mL
O=C1S/C(=C\c2ccoc2)C(=O)N1CC(O)(Cn1nccn1)c1ccc(F)cc1F	Candida colliculosa	Fluconazole-resistant 805			MIC50		0.58 µg/mL
OB1OC(N2CCCCC2)c2ccccc21	Candida tenuis		turbidity		MFC		62.5 µg/mL
CCCCCCCCCCn1cc[n+](COCCCCCCOC[n+]2ccn(CCCCCCCCCC)c2)c1	Candida krusei	ATCC 6258	agar diffusion		MIC100		2 µM
Cc1ccc(-n2cc(C(C)(C)O)nn2)cc1C	Candida albicans	URM 4126	broth dilution		inhibition	2048 µg/mL	0%
OB1OCc2cc(F)ccc21	Candida tenuis		turbidity		MIC		<0.9 µg/mL
CC(=NNC(=O)c1snnc1C(F)(F)F)c1ccccc1	Candida rugosa	NCIM 3462	agar diffusion / agar		zone	100 µg/mL	0 mm

For reference, 9 entries again:

SMILES	agent	strain or isolate	method	setting	read-out	dose	value
C[C@H]1[C@H](O)[C@@H](C)/C=C/C=C/C=C/C=C/C=C/C=C/C=C/[C@H](O[C@@H]2O[C@H](C)[C@@H](O)[C@H](N)[C@@H]2O)C[C@@H]2O[C@](O)(C[C@@H](O)C[C@@H](O)CC[C@H](O)[C@@H](O)C[C@@H](O)CC(=O)O[C@H]1C)C[C@H](O)[C@H]2C(=O)O	Candida guilliermondii		broth dilution		MFC		12.5 µg/mL
CN(C)c1ccc(C2c3ccc4ccccc4c3Oc3nc(-c4cc5ccccc5oc4=O)[nH]c(=O)c32)cc1	Candida rugosa		agar diffusion / agar		zone	100 µg/mL	12 mm
CCCCCCCCCCCCCCCC(=O)NC(CCCCN)C(=O)NC(CCCCN)C(N)=O	Candida guilliermondii	195	broth dilution		MIC		4 µg/mL
C[C@H]1[C@H](O)[C@@H](C)/C=C/C=C/C=C/C=C/C=C/C=C/C=C/[C@H](O[C@@H]2O[C@H](C)[C@@H](O)[C@H](N)[C@@H]2O)C[C@@H]2O[C@](O)(C[C@@H](O)C[C@@H](O)CC[C@H](O)[C@@H](O)C[C@@H](O)CC(=O)O[C@H]1C)C[C@H](O)[C@H]2C(=O)O	Candida lusitaniae	UTHSC 11-537	broth dilution		MIC		1 µg/mL
CCCCn1cc[n+](COCCCCOC[n+]2ccn(CCCC)c2)c1	Candida krusei	ATCC 6258	agar diffusion		MIC100		2871 µM
C[n+]1ccn(COCCCCCCOCn2cc[n+](C)c2)c1	Candida krusei	ATCC 6258	agar diffusion		MIC100		26 µM
C[C@H]1[C@H](O)[C@@H](C)/C=C/C=C/C=C/C=C/C=C/C=C/C=C/[C@H](O[C@@H]2O[C@H](C)[C@@H](O)[C@H](N)[C@@H]2O)C[C@@H]2O[C@](O)(C[C@@H](O)C[C@@H](O)CC[C@H](O)[C@@H](O)C[C@@H](O)CC(=O)O[C@H]1C)C[C@H](O)[C@H]2C(=O)O	Candida dubliniensis	ATCC MAY 646	broth dilution / absorbance		MIC99		0.39 µM
CC(=O)CC(C)n1c2c(=O)c3ccccc3c(=O)c=2oc2ccccc21	Candida tenuis	VKM Y-70			MIC		250 µg/mL
OB1OC(N2CCCCC2)c2ccccc21	Candida tenuis		turbidity		MFC		62.5 µg/mL